Tested on: SigB
Experiment: EMSA
Settings: free probe nearly gone at 12 ug protein, 10 pmol DNA, EMSA: 10 mM Tris-HCl pH 7.5, 1 mM EDTA, 50 mM NaCl, 5% glycerol, 30 min room temperature, 0-18 ug protein, 5% native PAGE at 4 °C, recombinant protein, residues 1-255, protein details: C-terminal 6xHis (pET22b), probe letters rebuilt from the primers and the genome

“CCAAAGTAAATTATAAGTTATACATCTCGTTTTTAAATGACAATTTATCCCCGTAAATATTATAAATAATCTTTTCAAATTCCACATAGATATAGAGACACTAATAAACCTCTTTGTCTCGATATGATAGTCTGCAACGATTCATGTTGTAGGCTTTTTAATTTTACAAATAAGGCTAAATATATAAGTTCTGGCACCTAAAATATAGAAAATACATAAAAGTAAGTATAGTTATTTTATTATAATTATTAAATTTTTATTAATTAATTGTAAAAATGTAGAATTATAATTAATTAACGTTTAATATTAAAATTAACTAAAAAGAAAGAGGTG (double strand) [nuc promoter EMSA probe]”: binds.
